Measured values from several laboratories, pooled; numbers as filed in NIAID ChemDB.

Common to all: growth or infection tests; agent: Staphylococcus aureus; endpoint: MIC

Lines come from different laboratories, so protocols vary.

structure	strain	result
CCCCCCCCCCCC[N+](C)(C)COCC(CC)CC	ATCC33592	2.75 µM
CC[C@H]1OC(=O)[C@H](C)C(=O)[C@H](C)[C@@H](O[C@@H]2O[C@H](C)C[C@H](N(C)C)[C@H]2O)[C@@]2(C)C[C@@H](C)C(=NC(C)=O)[C@H](C)C(OC/C(=C\C#Cc3cccnc3)CO2)[C@]1(C)O	27660 (erythromycin-resistant)	0.25 µg/mL
CO/N=C1\CN(c2nc3c(cc2F)c(=O)c(C(=O)O)cn3C2CC2)CC1CN	KU2244	0.125 µg/mL
CC[C@H]1OC(=O)[C@@](C)(F)C(=O)[C@H](C)[C@@H](O[C@@H]2O[C@H](C)C[C@H](N(C)C)[C@H]2O)[C@@]2(C)C[C@@H](C)C(=NC(C)=O)[C@H](C)[C@@H](OC/C(=N\OCc3ccc4nc(N)sc4c3)CO2)[C@]1(C)O	27660 (erythromycin A -resistant)	0.13 µg/mL
CC(=O)NC[C@H]1CN(c2ccc(-c3cccs3)c(F)c2)C(=O)O1	UC6685 (methicillin-resistant)	0.5 µg/mL
O=C(O)c1cn(C2CC2)c2cc(NCCCCCCO)c(F)cc2c1=O	ATCC 6538P	>100 µg/mL
CC(=O)NC[C@H]1CN(c2ccc(-c3nsc(C#N)n3)c(F)c2)C(=O)O1	UC6685 (methicillin-resistant)	4 µg/mL
CC[C@H]1OC(=O)[C@H](C)[C@@H](O[C@H]2C[C@@](C)(OC)[C@@H](O)[C@H](C)O2)[C@H](C)[C@@H](O[C@H]2O[C@@H](C)C[C@@H](N(C)C)[C@@H]2O)[C@](C)(O)C[C@@H](C)C(=O)[C@H](C)[C@@H](O)[C@]1(C)O	27660 (erythromycin A -resistant)	>64 µg/mL
CCNc1c(F)cc2c(=O)c(C(=O)O)cn(-c3cc(N)c(F)cc3F)c2c1C	W200 (methicillin-resistant)	0.015 µg/mL
CS(=O)(=O)N1CCN(c2ccc(N3C[C@H](COc4ccon4)OC3=O)cc2F)CC1	004 (methicillin quinolone-resistant)	4 µg/mL
CC(C)OCCCNc1cc2c(cc1F)c(=O)c(C(=O)O)cn2C1CC1	ATCC 5278 (methicillin-resistant)	>100 µg/mL
O=C(CO)N1CCN(c2ccc(N3C[C@H](CNc4ccon4)OC3=O)cc2F)CC1	004 (methicillin quinolone-resistant)	2 µg/mL
NCCNc1cc2c(cc1F)c(=O)c(C(=O)O)cn2C1CC1	ATCC 6538P	6.25 µg/mL
CC[C@H]1OC(=O)[C@H](C)C(=O)[C@H](C)[C@@H](O[C@@H]2O[C@H](C)C[C@H](N(C)C)[C@H]2O)[C@@]2(C)C[C@@H](C)C(=NC(C)=O)[C@H](C)C(OC/C(=C\c3cnc4ccccc4c3)CO2)[C@]1(C)O	27660 (erythromycin-resistant)	0.5 µg/mL
CCCC/C=C/C(=O)NC[C@H]1CN(c2ccc3c(c2)-n2cccc2COC3)C(=O)O1	ATCC 29213 (MSSA)	>32 µg/mL
CC[C@H]1OC(=O)[C@H](C)C(=O)[C@H](C)[C@@H](O[C@@H]2O[C@H](C)C[C@H](N(C)C)[C@H]2O)[C@@]2(C)C[C@@H](C)C(=NC(C)=O)[C@H](C)[C@@H](OC/C(=N\OCc3ccc(-c4ncccn4)s3)CO2)[C@]1(C)O	27660 (erythromycin A -resistant)	0.13 µg/mL
O=C(NC[C@H]1CN(c2ccc3c(c2)-n2cccc2COC3)C(=O)O1)C1CC1	ATCC 33591 (MRSA)	4 µg/mL
CC[C@H]1OC(=O)[C@H](C)C(=O)[C@H](C)[C@@H](O[C@@H]2O[C@H](C)C[C@H](N(C)C)[C@H]2O)[C@@]2(C)C[C@@H](C)C(=NC(C)=O)[C@H](C)C(OC/C(=C\C=C\c3ccccc3)CO2)[C@]1(C)O	33591 (erythromycin methicillin-resistant)	>64 µg/mL
CC(C)(Br)C(=O)NC[C@H]1CN(c2ccc3c(c2)-n2cccc2COC3)C(=O)O1	ATCC 29213 (MSSA)	32 µg/mL
CC[C@H]1OC(=O)[C@@](C)(F)C(=O)[C@H](C)[C@@H](O[C@@H]2O[C@H](C)C[C@H](N(C)C)[C@H]2O)[C@@]2(C)C[C@@H](C)C(=NC(C)=O)[C@H](C)[C@@H](OC/C(=N\OCc3ccc(-c4nccs4)nc3)CO2)[C@]1(C)O	33591 (erythromycin methicillin-resistant)	16 µg/mL
CCCCCCCCOC[N+](C)(C)CCCCCCCC	ATCC 6538	14.9 µM
CS(=O)(=O)N[C@@H]1CCN(c2ccc(N3C[C@H](COc4ccon4)OC3=O)cc2F)C1	078 (oxford)	1 µg/mL
CCCCCCCCCCCC[N+](C)(C)COCCCCCCC	ATCC 6538	1.32 µM
CC[C@H]1OC(=O)[C@@](C)(F)C(=O)[C@H](C)[C@@H](O[C@@H]2O[C@H](C)C[C@H](N(C)C)[C@H]2O)[C@@]2(C)C[C@@H](C)C(=NC(C)=O)[C@H](C)[C@@H](OC/C(=N\OCc3ccc(-c4csnn4)nc3)CO2)[C@]1(C)O	27660 (erythromycin A -resistant)	0.25 µg/mL
N#Cc1ccc(N2CCN(c3ccc(N4C[C@H](CNc5ccon5)OC4=O)cc3F)CC2)nn1	078 (oxford)	1 µg/mL
Cc1c(NC2CC2)c(F)cc2c(=O)c(C(=O)O)cn(-c3cc(N)c(F)cc3F)c12	SMITH	<0.004 µg/mL
O=C(O)c1cn(C2CC2)c2cc(NCCCNC3CCCCC3)c(F)cc2c1=O	ATCC 5278 (methicillin-resistant)	>100 µg/mL
CC(=O)NC[C@H]1CN(c2ccc(-c3ccn[nH]3)c(F)c2)C(=O)O1	UC9213 (methicillin-susceptible)	4 µg/mL
Cc1c(NC(C)C)c(F)cc2c(=O)c(C(=O)O)cn(-c3cc(N)c(F)cc3F)c12	MR8736 (methicillin-resistant)	0.5 µg/mL
CCCCCCCCCCCC[N+](C)(C)CSCCCCC	ATCC 6538	13.7 µM
CN(C)CCCNc1cc2c(cc1F)c(=O)c(C(=O)O)cn2C1CC1	ATCC 6538P	>100 µg/mL
CCCCCCCCCCCCSC[N+](C)(C)CCCCCCCCCCCC	ATCC33592	10.8 µM
CC[C@H]1OC(=O)[C@H](C)C(=O)[C@H](C)[C@@H](O[C@@H]2O[C@H](C)C[C@H](N(C)C)[C@H]2O)[C@@]2(C)C[C@@H](C)C(=NC(C)=O)[C@H](C)C(OC/C(=C\C=C\c3ccc(OC)cc3)CO2)[C@]1(C)O	29213 (erythromycin-susceptible)	0.5 µg/mL
O=C(O)c1cn(-c2ccc(F)cc2F)c2cc(NCCO)c(F)cc2c1=O	ATCC 6538P	0.78 µg/mL
CCCCCCCCCOC[N+](C)(C)CCCCCCCC	ATCC33592	14.3 µM
CC(=O)NC[C@H]1CN(c2ccc(-c3cnc(C(C)=O)s3)c(F)c2)C(=O)O1	UC9213 (methicillin-susceptible)	1 µg/mL
O=C(CC(F)(F)F)NC[C@H]1CN(c2ccc3c(c2)-n2cccc2COC3)C(=O)O1	ATCC 29213 (MSSA)	8 µg/mL
CCCCCCCCCCCC[N+](C)(C)COCCCC	ATCC 6538	4.46 µM
O=C(CBr)NC[C@H]1CN(c2ccc3c(c2)-n2cccc2COC3)C(=O)O1	ATCC 33591 (MRSA)	4 µg/mL
CCCCCCCCCCCC[N+](C)(C)COCCC(C)C	ATCC33592	7.14 µM